{
  "source": "patent US12458691",
  "about": "(UNITED STATES OF AMERICA AS REPRESENTED BY THE SECRETARY …, dated 2025)",
  "binders": {"B1": {"name": "PGT151 (antibody, V domains shown)", "VH": "RVQLVESGGGVVQPGKSVRLSCVVSDFPFSKYPMYWVRQAPGKGLEWVAAISGDAWHVVYSNSVQGRFLVSRDNVKNTLYLEMNSLKIEDTAVYRCARMFQESGPPRLDRWSGRNYYYYSGMDVWGQGTTVTVSS", "VL": "DIVMTQTPLSLSVTPGQPASISCKSSESLRQSNGKTSLYWYRQKPGQSPQLLVFEVSNRFSGVSDRFVGSGSGTDFTLRISRVEAEDVGFYYCMQSKDFPLTFGGGTKVDLK"}},
  "key": {"[1]": {"biological_target": "T1, FP8-1LSF (HIV-1 strain BG505)"}, "[2]": {"biological_target": "T1, FP8-1LSF", "remark": "listed apart in the source"}, "[3]": {"biological_target": "FP8-1M6T (HIV-1 strain BG505)"}},
  "note": "Read-outs that look alike come from different tables or passages of the source.",
  "data": [
    {"binder": "B1", "values": [
      {"measurement": "Kd", "setting": "[1]", "value": 6.1, "unit": "nM"},
      {"measurement": "Kd", "setting": "[2]", "value": 87.1, "unit": "nM"},
      {"measurement": "Kd", "setting": "[3]", "value": "> 2000", "unit": "nM"}
    ]}
  ]
}
